Anti-infective test results gathered from many reports (values: NIAID ChemDB through PubChem).

All rows: growth or infection tests; species: HIV-1; read-out: EC50

Blank or dashed fields: not listed here.

SMILES,method,cells,setting,strain or isolate,result
Nc1c(C(=O)Nc2cccc(C(F)(F)F)c2)sc2ncccc12,XTT,CEM-SS,-,RF,>316 µM
Cc1nn(C)c2ncc(C(=O)C(=O)N3CCN(C(=O)c4ccccc4)CC3C)c(Cl)c12,luciferase / reporter gene,HeLa,-,-,>5 µM
CCO[C@H]1N([C@H]2C[C@H](N=[N+]=[N-])[C@@H](CO)O2)C(=O)NC(=O)[C@]1(C)Cl,cytopathic effect / XTT,CEM + CEM-SS,-,RF,>200 µM
COc1ccc(C#N)c2[nH]cc(C(=O)N3CCN(C(=O)c4ccccc4)CC3)c12,luciferase / reporter gene,HeLa,-,-,>0.5 µM
CO[C@@]1(Cc2ccccc2)NC(=O)[C@](O)(Cc2ccccc2)NC1=O,luciferase / luminescence,293T,-,NL4-3,>20 µM
CC(C)(C)OC(=O)N1Cc2ccccc2CN1CC(O)[C@H](Cc1ccccc1)NC(=O)[C@H](CC(N)=O)NC(=O)c1ccc2ccccc2n1,cytopathic effect / RT activity / trypan blue,MT-2,-,Clinical isolate strain 237228,<1 µM
FC(F)(Cc1ccccc1)c1nc2ccccc2o1,RT activity,CEM + CEM-SS,-,LAI,>100 µM
COc1cc2ccnc3c2c(c1OC(=O)c1ccc(C#N)cc1)N(C)C=C3,-,-,-,-,8.2 µM
CC(C)(C)OC(=O)N1CC2CCCCC2CN1CC(O)[C@H](Cc1ccccc1)NC(=O)[C@H](CC(N)=O)NC(=O)c1ccc2ccccc2n1,cytopathic effect / RT activity / trypan blue,MT-2,-,Clinical isolate strain 237228,<0.1 µM
COc1ccc(C(=O)Oc2cc(OC)c(OC)c(OC)c2)cc1NC(=O)C(C)Br,-,H9,-,-,0.017 µM
CC1(C)C=C2C3CCC4[C@@]5(C)CC[C@H](O)C(C)(C)C5CC[C@@]4(C)[C@]3(C)CC[C@@]2(C)C[C@H]1O,-,MT-2,-,NL4-3,64.36 µM
Nc1ccn([C@H]2CC[C@@H](CO)O2)c(=O)n1,MTT / p24,MOLT-4/8 + MOLT-4,-,RF,0.048 µM
CC1CN(C(=O)c2ccccc2)CCN1C(=O)C(=O)c1cccc2cc[nH]c12,luciferase / reporter gene,HeLa,-,-,1–5 µM
CS[C@@]1(Cc2ccccc2)NC(=O)[C@@](Cc2ccccc2O)(SC)NC1=O,luciferase / luminescence,293T,-,NL4-3,4.9 µM
COCc1cc(C)nc2sc(C(=O)Nc3ccc(NC(C)=O)cc3)c(N)c12,XTT,CEM-SS,-,RF,>63 µM
CC(C)C1=C2[C@H]3CC[C@@H]4[C@@]5(C)CC[C@H](OC(=O)[C@H]6C[C@@H](C(=O)O)C6(C)C)C(C)(C)[C@@H]5CC[C@@]4(C)[C@]3(C)CC[C@@]2(CCNC(=O)c2ccc(OCCN3CCOCC3)cc2)CC1=O,p24 / ELISA,MT-2,-,92HT599,<1 µM
CC(C)N(C[C@H](O)[C@H](Cc1ccccc1)NC(=O)[C@H](CC(N)=O)NC(=O)c1ccccn1)NC(=O)OC(C)(C)C,cytopathic effect / RT activity / trypan blue,MT-2,-,Clinical isolate strain 237228,<1 µM
FC(c1ccccc1)C(F)(F)c1nc2ccccc2o1,RT activity,CEM + CEM-SS,-,LAI,>100 µM
Nc1nc(=O)n([C@H]2O[C@@H](CO)[C@H](O)[C@H]2O)cc1F,cytopathic effect / MTT,MT-4,-,IIIB,>100 µM
CC(C)(C)OC(=O)N[C@@H](Cc1ccccc1)[C@@H](O)C[C@]1(Cc2ccccc2)NC=C(C2c3ccccc3[C@H]3NC(=O)O[C@@H]23)C1=O,p24,MT-4,10% FBS,IIIB WT,<0.156 µM
COc1cc2ccnc3c2c(c1OC(=O)c1ccc(F)c(F)c1)N(C)C=C3,-,-,-,-,16.6 µM
CO[C@H]1N([C@H]2C[C@H](N=[N+]=[N-])[C@@H](CO)O2)C(=O)NC(=O)[C@]1(C)Br,cytopathic effect / XTT,CEM + CEM-SS,-,RF,5.79 µM
CC(C)C1=C2[C@H]3CC[C@@H]4[C@@]5(C)CC[C@H](OC(=O)[C@H]6C[C@@H](C(=O)O)C6(C)C)C(C)(C)[C@@H]5CC[C@@]4(C)[C@]3(C)CC[C@@]2(CCNCC(C)(C)NC(=O)c2ccc(Cl)cc2O[C@H]2CCOC2)CC1=O,p24 / ELISA,MT-2,-,92HT599,<1 µM
O=S(=O)(O)c1ccc(-c2c3nc(c(-c4ccc(S(=O)(=O)O)cc4)c4ccc([nH]4)c(-c4ccc(S(=O)(=O)O)cc4)c4nc(c(-c5ccccc5)c5ccc2[nH]5)C=C4)C=C3)cc1,β-galactosidase,MAGI,-,IIIB,0.5 µg/mL
COc1ccc2cc(C(=O)C(C#N)N3CCN(C(=O)c4ccccc4)CC3C)[nH]c2c1,luciferase / reporter gene,HeLa,-,-,<1 µM
CC(C)C1=C2[C@H]3CC[C@@H]4[C@@]5(C)CC[C@H](OC(=O)[C@H]6C[C@@H](C(=O)O)C6(C)C)C(C)(C)[C@@H]5CC[C@@]4(C)[C@]3(C)CC[C@@]2([C@@H](O)CNCC(C)(C)NC(=O)c2ccc(N3CCS(=O)(=O)CC3)cc2)CC1=O,p24 / ELISA,MT-2,-,92HT599,<1 µM
FC(F)(c1ccccc1)C(F)(F)c1nc2ccccc2o1,RT activity,CEM + CEM-SS,-,LAI,>100 µM
CC(C)O[C@H]1N([C@H]2C[C@H](N=[N+]=[N-])[C@@H](CO)O2)C(=O)NC(=O)[C@]1(C)Cl,cytopathic effect / XTT,CEM + CEM-SS,-,RF,>200 µM
NC(=O)[C@H](CCCCNC(=O)CCC(=O)O)NC(=O)[C@H](CCCCNC(=O)CCC(=O)O)NC(=O)[C@H](CCCCNC(=O)CCC(=O)O)NC(=O)c1ccccc1,p24,C8166,-,IIIB,100 µM
CCc1cc2c(N)c(C(N)=O)sc2nc1C,XTT,CEM-SS,-,RF,>20 µM
CC1(C)C=C2C3CCC4[C@@]5(C)CCC(=O)C(C)(C)C5[C@H](O)C[C@@]4(C)[C@]3(C)CC[C@@]2(C)CC1,-,MT-2,-,NL4-3,23.8 µM
Nc1nc(F)nc2c1ncn2[C@@H]1O[C@H](CO)C[C@@H]1F,-,MT-2,-,IIIB,9.4 µg/mL
CCOCn1c(Cc2ccccc2)c(C(C)C)c(=O)[nH]c1=O,cytopathic effect / MTT,MT-4,-,IIIB,0.014 µM
Cc1nc2ccc(CNC[C@H](O)[C@@]34CC[C@]5(C)[C@H](CC[C@@H]6[C@@]7(C)CC[C@H](OC(=O)[C@H]8C[C@@H](C(=O)O)C8(C)C)C(C)(C)[C@@H]7CC[C@]65C)C3=C(C(C)C)C(=O)C4)cc2[nH]1,p24 / ELISA,MT-2,-,92HT599,<1 µM
CC(C)N(C[C@H](O)[C@H](Cc1ccccc1)NC(=O)[C@H](CC(N)=O)NC(=O)c1ccccc1)NC(=O)OC(C)(C)C,cytopathic effect / RT activity / trypan blue,MT-2,-,Clinical isolate strain 237228,<1 µM
CS[C@@]12CC3C(=O)CC[C@H](O)[C@H]3N1C(=O)[C@@]13C[C@@H]4[C@@H]([C@@H](O)[C@@H](C[C@@H]4O)S1)N3C2=O,luciferase / luminescence,293T,-,NL4-3,18.2 µM
CCO[C@@H]1N([C@H]2C[C@H](N=[N+]=[N-])[C@@H](CO)O2)C(=O)NC(=O)[C@@]1(C)Cl,cytopathic effect / XTT,CEM + CEM-SS,-,RF,>200 µM
CC1(C)C=C2C3CCC4[C@@]5(C)CCC(=O)C(C)(C)C5CC[C@@]4(C)[C@]3(C)CC[C@@]2(C)CC1=O,-,MT-2,-,NL4-3,4.038 µM
CC(C)(C)OC(=O)N1CCCCN1C[C@H](O)[C@H](Cc1ccccc1)NC(=O)[C@H](CC(N)=O)NC(=O)c1ccc2ccccc2n1,cytopathic effect / RT activity / trypan blue,MT-2,-,Clinical isolate strain 237228,<1 µM
CS[C@@]12CC3C(=O)CC[C@H](O)[C@H]3N1C(=O)[C@@]13C[C@@H]4[C@@H]([C@@H](O)C=C[C@@H]4S1)N3C2=O,luciferase / luminescence,293T,-,NL4-3,13.3 µM
COc1cc2ccnc3c2c(c1OC(=O)CSc1ccccc1)N(C)C=C3,-,-,-,-,4.6 µM
Nc1nc(=O)n([C@@H]2C[C@H](O)[C@H](CO)O2)cc1F,cytopathic effect / MTT,MT-4,-,IIIB,>100 µM
O=S(=O)(O)O.O=S(=O)(O)O.O=S(=O)(O)O.O=S(=O)(O)O.O=S(=O)(O)O.O=S(=O)(O)O.OC[C@H]1O[C@@H]2O[C@H]3[C@H](O)[C@@H](O)[C@@H](O[C@H]4[C@H](O)[C@@H](O)[C@@H](O[C@H]5[C@H](O)[C@@H](O)[C@@H](O[C@H]6[C@H](O)[C@@H](O)[C@@H](O[C@H]7[C@H](O)[C@@H](O)[C@@H](O[C@H]1[C@H](O)[C@H]2O)O[C@@H]7CO)O[C@@H]6CO)O[C@@H]5CO)O[C@@H]4CO)O[C@@H]3CO,syncytia,HuT-78 + HUT 78,-,IIIB,>500 µg/mL
CC(C)N(C[C@H](O)[C@H](Cc1ccccc1)NC(=O)[C@H](CC(N)=O)NC(=O)c1ccc2ccccc2n1)NC(=O)NC(C)(C)C,cytopathic effect / RT activity / trypan blue,MT-2,-,Clinical isolate strain 237228,<1 µM
O=C(N[C@@H](CCCCNC(=O)c1c(O)cccc1C(=O)O)C(=O)OCc1ccccc1)OCc1ccccc1,p24,C8166,-,IIIB,>500 µM
Cc1cn(CCCCO[C@@H]2O[C@H](CO)[C@@H](N=[N+]=[N-])[C@H]2O)c(=O)[nH]c1=O,cytopathic effect,MT-4,-,IIIB,>200 µg/mL
COCc1cc(C)nc2sc(C(=O)Nc3cccc(C(C)=O)c3)c(N)c12,XTT,CEM-SS,-,RF,>63 µM
CCCCc1ccc(C(=O)Oc2c(OC)cc3ccnc4c3c2N(C)C=C4)cc1,-,-,-,-,3.8 µM
O=S(=O)(O)c1ccc(-c2c3nc(c(-c4ccc(S(=O)(=O)O)cc4)c4ccc([nH]4)c(-c4ccc(S(=O)(=O)O)cc4)c4nc(c(-c5ccc(S(=O)(=O)O)cc5)c5ccc2[nH]5)C=C4)C=C3)cc1,β-galactosidase,MAGI,-,IIIB,<50 µg/mL
O=C(O)CCC(=O)NCCCC[C@H](NC(=O)OCc1ccccc1)C(=O)OCc1ccccc1,p24,C8166,-,IIIB,>100 µM
N#CC(C(=O)c1cccc2cc[nH]c12)N1CCN(C(=O)c2ccccc2)CC1,luciferase / reporter gene,HeLa,-,-,>0.5 µM
CC(C)C1=C2[C@H]3CC[C@@H]4[C@@]5(C)CC[C@H](OC(=O)[C@H]6C[C@@H](C(=O)O)C6(C)C)C(C)(C)[C@@H]5CC[C@@]4(C)[C@]3(C)CC[C@@]2(CCNCC(C)(C)NC(=O)c2ccc(O[C@@H]3CCOC3)cc2)CC1=O,p24 / ELISA,MT-2,-,92HT599,<1 µM
Nc1nc(=O)n([C@H]2O[C@@H](CO)[C@@H](O)[C@H]2O)cc1F,cytopathic effect / MTT,MT-4,-,IIIB,>100 µM
CC(C)C1=C2[C@H]3CC[C@@H]4[C@@]5(C)CC[C@H](OC(=O)[C@H]6C[C@@H](C(=O)O)C6(C)C)C(C)(C)[C@@H]5CC[C@@]4(C)[C@]3(C)CC[C@@]2([C@@H](O)CNCC(C)(C)NC(=O)c2ccc(Cl)cc2OCCN2CCCCC2)CC1=O,p24 / ELISA,MT-2,-,92HT599,<1 µM
O=C(O)CCC(=O)NCCCC[C@H](NC(=O)OCc1ccccc1)C(=O)N[C@@H](CCCCNC(=O)CCC(=O)O)C(=O)OCc1ccccc1,p24,C8166,-,IIIB,>250 µM
CC1=C[C@@H](OCP(=O)(OCCSC(=O)C(C)(C)C)OCCSC(=O)C(C)(C)C)C[C@H]1n1cnc2c(N)ncnc21,XTT,MT-4,-,-,20 µM
CC(C)(CS(=O)(=O)[O-])[NH2+]C(=O)C(CC(F)(OC(F)(F)C(F)(OC(F)(F)C(F)(OC(F)(F)C(F)(F)C(F)(F)F)C(F)(F)F)C(F)(F)F)C(F)(F)F)C(F)(OC(F)(F)C(F)(OC(F)(F)C(F)(OC(F)(F)C(F)(F)C(F)(F)F)C(F)(F)F)C(F)(F)F)C(F)(F)F,cytopathic effect / MTT,MT-4,-,IIIB,0.85 µg/mL

The first 5 rows once more:

Nc1c(C(=O)Nc2cccc(C(F)(F)F)c2)sc2ncccc12 ; method: XTT ; cells: CEM-SS ; strain or isolate: RF ; result: >316 µM
Cc1nn(C)c2ncc(C(=O)C(=O)N3CCN(C(=O)c4ccccc4)CC3C)c(Cl)c12 ; method: luciferase / reporter gene ; cells: HeLa ; result: >5 µM
CCO[C@H]1N([C@H]2C[C@H](N=[N+]=[N-])[C@@H](CO)O2)C(=O)NC(=O)[C@]1(C)Cl ; method: cytopathic effect / XTT ; cells: CEM + CEM-SS ; strain or isolate: RF ; result: >200 µM
COc1ccc(C#N)c2[nH]cc(C(=O)N3CCN(C(=O)c4ccccc4)CC3)c12 ; method: luciferase / reporter gene ; cells: HeLa ; result: >0.5 µM
CO[C@@]1(Cc2ccccc2)NC(=O)[C@](O)(Cc2ccccc2)NC1=O ; method: luciferase / luminescence ; cells: 293T ; strain or isolate: NL4-3 ; result: >20 µM

a–b is a range or a potency band. Conditions beyond the fields shown may differ between rows. ECn is the concentration giving n% inhibition of infection, replication or growth.